# The entries are a selection whose mix differs from that of the whole data set. Records with an inconclusive call do not appear. Some salts or complexes appear as unconnected parts, following the source record. Active and inactive are the calls of the source. No stated cut-off is given here; in the data, active means activity change below about -60%; inconclusive means no clear call, values can overlap the other calls; inactive means above about -39%.
# Test: qHTS Assay for inhibitors of the human cytomegalovirus (HCMV)
# Conditions: HFF cells, HCMV-luciferase reporter, 72 h; at 57.5 µM; active compounds read low
# Source text: NCGC Assay Overview: Infection with human cytomegalovirus (HCMV) continues to pose significant threats for pregnant women and immunocompromised hosts. HCMV causes serious morbidity and mortality in transplant recipients, and congenital HCMV is the leading infectious cause of mental retardation and deafness in children. In the 1990s, the annual costs associated with the disease burden of congenital CMV were estimated at around $2 billion. A HCMV vaccine is not available yet and HCMV therapies result in intolerable side effects and emergence of drug resistant viruses. […] Towards this goal we have developed and characterized a luciferase HCMV reporter that was initially used in 96 well plates and then optimized to 1536-well plates for utilization in screening of the MLSMR collection, the NGCG diversity collection and the NCGC Pharmaceutical Collection of approved and investigational drugs.
# NCGC Assay Protocol Summary:
# This is a cell-based assay for HCMV inhibition in HFFs cells. The screening used 2 compound doses and the HCMV-luciferase at MOI of 1 PFU/cell. Cells were treated and infected with HCMV. At 72 h post infection cell lysates were collected and luciferase activity was determined using the Glomax-Multi + Detection System (Promega, Madison, WI). Data were normalized to the controls for basal activity (buffer only) and known HCMV inhibitors Salinmoycin.
# 1536-well assay protocol for the assay:
# (1) Add 3 ul CMV/HFF cell culture. 1000 cells/well in DMEM nirmal media.
# (2) Incubate 16 hr at 37C.
# (3) Add 23 nl control compound, 10uM of Salinomycin.
# (4) Add 23 nl compounds in DMSO solution.
# (5) Add 3 ul CMV suspension. Final 1 puf/ul, Virus stock 2000pfu/ul
# (6) Incubate 72 hrs at 37C.
# (7) Add 4 ul OneGlo Luc Reagent.
# (8) Incubate 5 min at room temperature.
# On the % scale 0 is the no-effect control and ±100 the full control effect.
row,Compound,"activity change, negative = inhibition"
1,CC(C)c1ccc(NC2CCN(C(=O)OC(C)(C)C)CC2)cc1,inactive: 30.2%
2,COc1ccc(CN(CCCl)CCCl)cc1Cl,inactive: -31.4%
3,CN(C)c1cccc(C(=O)NCC2(N3CCCCC3)CCCCC2)c1,inactive: 19.6%
4,O=[N+]([O-])c1cc([N+](=O)[O-])c(OC2CCCCC2O)c([N+](=O)[O-])c1 (centres undefined),inactive: -4.76%
5,COc1cc(OC)c(C(=O)NCC2(N(C)C)CCCCC2)cc1OC,inactive: 15.3%
6,CCN(CC)CCCNc1ccccc1[N+](=O)[O-].O=[N+]([O-])c1cc([N+](=O)[O-])c(O)c([N+](=O)[O-])c1,inactive: 11.8%
7,CCC(c1nnnn1C(C)(C)C)N1CCC(n2c(=O)[nH]c3ccccc32)CC1 (centres undefined),inactive: -12.8%
8,CCCCn1nnnc1C(c1ccnc2ccccc12)N1CCC(n2c(=O)[nH]c3ccccc32)CC1 (centres undefined),inactive: -35.1%
9,O=C(OC1CN2CCC1CC2)c1ccc([N+](=O)[O-])cc1 (centres undefined),inactive: 30.5%
10,O=C(NCC1(N2CCCCC2)CCCCC1)c1cncc(Br)c1,inactive: 0%
11,COc1ccc2c(c1O)-c1c(O)c(OC)cc3c1[C@H](C2)[N+](C)(C)CC3.O=[N+]([O-])c1cc([N+](=O)[O-])c([O-])c([N+](=O)[O-])c1[O-],inactive: 86.4%
12,CN1CCC(Nc2cccc(F)c2)CC1,inactive: 33%
13,O=[N+]([O-])c1cc([N+](=O)[O-])c(Nc2ccc(Cl)cc2)c([N+](=O)[O-])c1,active: -64.6%
14,Cc1ccc(C(=O)NCC2(N(C)C)CCCCC2)o1,inactive: -4.45%
15,CCCOc1ccc(C(=O)NCC2(N(C)C)CCCCC2)cc1OC,inactive: 16.9%
16,O=C(NCC1(N2CCOCC2)CCCCC1)c1ccccc1Br,inactive: 1.46%
17,CC(C)(C)n1nnnc1C(c1ccccc1OC(F)(F)F)N1CCC(n2c(=O)[nH]c3ccccc32)CC1 (centres undefined),inactive: -17.8%
18,O=C(NCC1(N2CCCCC2)CCCCC1)c1ccc(OC(F)F)cc1,inactive: -25.1%
19,CCN1CCC(Nc2ccc(Cl)cc2)CC1,inactive: 6.54%
20,N#CC1(Nc2ccccc2)CCN(CCc2ccccc2)CC1,inactive: -9.12%

row,Compound,"activity change, negative = inhibition"
1,O=c1[nH]c2ccccc2n1C1CCN(C(c2ccccc2OC(F)(F)F)c2nnnn2C2CCCC2)CC1 (centres undefined),inactive: -24%
2,CSc1ccc(C(=O)NCC2(N3CCOCC3)CCCCC2)cc1,inactive: -21.9%
3,CCOc1ccc(C(=O)NCC2(N3CCOCC3)CCCCC2)cc1,inactive: 5.6%
4,O=C(NCC1(N2CCCCC2)CCCCC1)c1cccc([N+](=O)[O-])c1,inactive: 7.6%
5,O=[N+]([O-])c1cc([N+](=O)[O-])c(NCC2CCS(=O)(=O)C2)c([N+](=O)[O-])c1 (centres undefined),inactive: -10.2%
6,O=C(NCC1(N2CCCCC2)CCCCC1)c1cccc(C(F)(F)F)c1,inactive: 14.3%
7,O=C(NCC1(N2CCOCC2)CCCCC1)c1cc(=O)[nH]c2ccccc12,inactive: -14.1%
8,COc1cc(C(=O)NCC2(N3CCCCC3)CCCCC2)ccc1OC(F)F,inactive: -12.4%
9,COc1ccc(NC2CCN(C(=O)OC(C)(C)C)CC2)cc1,inactive: 18.2%
10,CC(C)c1ccc(C(=O)NCC2(N3CCOCC3)CCCCC2)cc1,inactive: 26.9%
11,CN1CCN(CCOC(=O)C(O)(c2ccccc2)c2ccccc2)CC1,inactive: 12.2%
12,CC(C)(C)n1nnnc1C(c1ccccc1)N1CCC(n2c(=O)[nH]c3ccccc32)CC1 (centres undefined),inactive: -19.4%
13,O=C(NCC1(N2CCOCC2)CCCCC1)c1ccc(Cl)cc1,inactive: 13.5%
14,O=C1CCN(Cc2ccccc2)CC1,inactive: -28.2%
15,CCOc1ccc(C)cc1CN(CCCl)CCCl,inactive: -10.4%
16,COc1ccccc1C(=O)NCC1(N2CCOCC2)CCCCC1,inactive: 2.27%
17,O=C(NCC1(N2CCCCC2)CCCCC1)c1ccc(F)cc1,inactive: 0.656%
18,CCCCOc1ccc(C(=O)NCC2(N3CCOCC3)CCCCC2)cc1,inactive: -7.09%
19,O=P1(N(CCCl)CCCl)SCCCS1,inactive: 29.6%
20,CCOC(=O)N1CCC(Nc2ccc(F)cc2)CC1,inactive: -1.46%

row,Compound,"activity change, negative = inhibition"
1,COc1ccc(NC2CCN(CCc3ccccc3)CC2)c(OC)c1,inactive: -7.16%
2,COc1cc(C(=O)NCC2(N(C)C)CCCCC2)ccc1OC(F)F,inactive: -18.9%
3,CCOC(=O)N1CCC(Nc2cccc(C)c2)CC1,inactive: 8.8%
4,O=c1[nH]c2ccccc2n1C1CCN(C(c2cccc3ccccc23)c2nnnn2C2CCCC2)CC1 (centres undefined),inactive: -22.3%
5,COc1ccc(C(=O)NCC2(N3CCCCC3)CCCCC2)c(OC)c1OC,inactive: 24%
6,CC(C)(C)OC(=O)N1CCC(N(C(=O)c2ccccc2)c2ccc(F)cc2)CC1,inactive: -10.4%
7,O=C(NCC1(N2CCCCC2)CCCCC1)c1ccc(=O)[nH]c1,inactive: -2.74%
8,CCCCn1nnnc1C(CC)N1CCC(n2c(=O)[nH]c3ccccc32)CC1 (centres undefined),inactive: -27.8%
9,O=C(NCC1(N2CCCCC2)CCCCC1)c1cccs1,inactive: -30.3%
10,CSc1ccccc1C(=O)NCC1(N2CCCCC2)CCCCC1,inactive: 0%
11,Cc1cccc(NC2(C#N)CCN(Cc3ccccc3)CC2)c1,inactive: 46.4%
12,O=c1[nH]c2ccccc2n1C1CCN(C(c2ccccc2OC(F)(F)F)c2nnnn2C2CCCCC2)CC1 (centres undefined),inactive: -32.9%
13,O=C(NCC1(N2CCCCC2)CCCCC1)c1ccc(Cl)nc1,inactive: -25.3%
14,Cc1cc(C)cc(N(C(=O)c2ccccc2)C2CCN(C(=O)OC(C)(C)C)CC2)c1,inactive: -33.9%
15,O=C(NCC1(N2CCOCC2)CCCCC1)c1cc2ccccc2o1,inactive: -7.89%
16,O=c1[nH]c2ccccc2n1C1CCN(C(c2cc3ccccc3o2)c2nnnn2C2CCCCC2)CC1 (centres undefined),inactive: -23.6%
17,O=C(OC1CN2CCC1CC2)C1c2ccccc2Oc2ccccc21 (centres undefined),inactive: -5.02%
18,N#CC1(Nc2ccccc2)CCN(Cc2ccccc2)CC1,inactive: 37.2%
19,O=C(NCC1(N2CCCCC2)CCCCC1)c1ccc(Cl)s1,inactive: -3.86%

# — PubChem BioAssay AID1259415 (National Center for Advancing Translational Sciences (NCATS), 2018)
